The data set in a line: general procedure: peptide synthesis; 1,1'-carbonyldiimidazole/1-hydroxybenzotriazole, N-ethyldiisopropylamine.

In turn, “1-{2-[(L-Naphthylalanyl-L-valyl)amino]-1-hydroxy-3-phenylpropyl},1-{1-[(L-naphthylalanyl-L-valyl)amino]-2-phenylethyl}phosphinic acid dihydrobromide” registered a step yield (late stage modification step) of 50%. The substance “Ethyl 1-{2-[(N-tert-butyloxycarbonyl-L-naphthylalanyl-L-valyl)amino]-1-hydroxy-3-phenylpropyl},1-{1-[(N-tert-butyloxycarbonyl-L-naphthylalanyl-L-valyl)amino]-2-phenylethyl}phosphinate” showed a step yield (coupling step) of 62%. For the substance “Ethyl 1-{2-[(L-naphthylalanyl-L-valyl)amino]-1-hydroxy-3-phenylpropyl},1-{1-[(L- naphthylalanyl-L-valyl)amino]-2-phenylethyl}phosphinate bistrifluoroacetate”, the step yield (late stage modification step) is reported as 80%.

(Values after patent US5663139A (Hoechst Aktiengesellschaft, priority 1992, dated 1997).)
